Results deposited as PubChem BioAssay AID1259414 (Drosophila RNAi Screening Center, 2018)

Aim: 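Fly genes that alter Wolbachia amount inside host cells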 (primary screen)
Cells: Drosophila JW18 cells infected with Wolbachia
Knock-down reagent: long dsRNA against Drosophila genes, 0.25 µg dsRNA per well of a 384-well plate
Time to read-out: 5 days
Conditions: cells persistently infected with Wolbachia before knock-down; no added drug
Measurement: 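Automated imaging of bacterial rRNA staining divided by host cell count, reported as plate-normalised robust z-score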
Scale: Wolbachia per cell robust z: higher = more Wolbachia per host cell than the plate typical
Hit rule: 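Hit when robust z is 1.5 or more, or -1.5 or less, in at least two of three replicates; excludes dsRNAs with several or no targets, genes not expressed in JW18 and well A1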
In all, the deposit lists about 24,000 reagents; this is a random part of those that have a named target and a result. Over the whole deposit, about 1,210 (5%) got an active call. 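Inactive calls also include excluded dsRNAs with several or no targets, genes unexpressed in JW18, and well A1, regardless of score.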 A number with no mark means an inactive call. The numbers tell different reagents against one gene apart. A plus sign joins genes that one reagent is predicted to hit.

gene | reagent | Wolbachia per cell robust z, rep 1 | Wolbachia per cell robust z, rep 2 | Wolbachia per cell robust z, rep 3
Gr97a (GeneID 117338) | 1 | 0.221 | 0.655 | 0.235
FIG4 (GeneID 33658) | 1 | 0.271 | -5.16 | 0.842
mRNA-cap (GeneID 32379) | 1 | -2.72 | 1.73 | 0.406
Sap47 (GeneID 41938) | 1 | 0.49 | 0.52 | 0.0841
Sap47 (GeneID 41938) | 2 | 1.7 | 0.508 | 0.905
Ndfip (GeneID 326197) | 1 | -0.988 | -0.382 | -1.43
Rox8 (GeneID 42848) | 1 | 0.363 | -1.97 | 0.3
Rox8 (GeneID 42848) | 2 | 0.254 | 0.491 | -0.0726
CG17377 (GeneID 33954) | 1 | 0.288 | 0.441 | -2.12
CG17377 (GeneID 33954) | 2 | -0.729 | 0.981 | -0.293
CG17377 (GeneID 33954) | 3 | 0.204 | -0.561 | -0.0966
CG17377 (GeneID 33954) | 4 | 0.604 | 1.28 | 0.18
CG31419 (GeneID 326137) | 1 | 0.312 | 0.433 | 0.952
CG31419 (GeneID 326137) | 2 | -1.02 | 0.135 | -1.07
up (GeneID 32314) | 1 | 0.592 | -1.43 | 0.347
up (GeneID 32314) | 2 | -2.15 | 0.0737 | -1.12
ACC (GeneID 35761) | 1 | 1.5 (active) | 3.86 | 2.86
ACC (GeneID 35761) | 2 | 2.03 (active) | 1.07 | 2.25
CG8569 (GeneID 36376) | 1 | 0.779 | 0.809 | 0.225
CG7509 (GeneID 38579) | 1 | 0.25 | 0.235 | -0.252
Kr-h1 (GeneID 33861) | 1 | 0.698 | 0.292 | 0.235
Kr-h1 (GeneID 33861) | 2 | -5.73 | -8.31 | 0.962
Kr-h1 (GeneID 33861) | 3 | -0.745 | -0.981 | -1.34
CG13051 (GeneID 5740583) | 1 | -0.26 | -2.28 | 1.37
CG13051 (GeneID 5740583) | 2 | -0.986 | -0.222 | 0.329
CG9903 (GeneID 32621) | 1 | 0.511 | 1.08 | -0.548
Pcf11 (GeneID 36658) | 1 | 1.97 (active) | 3.36 | 3.29
Pxt (GeneID 42131) | 1 | 1.03 | 0.237 | 0.913
Rtf1 (GeneID 37554) | 1 | 0.267 | 0.0823 | 0.0302
Rtf1 (GeneID 37554) | 2 | -0.0443 | 1.63 | 0.14
CG6901 (GeneID 41977) | 1 | -0.825 | -0.388 | -0.895
CG6901 (GeneID 41977) | 2 | -0.982 | -0.712 | -10.4
Cdc23 (GeneID 35315) | 1 | -0.328 | -1.01 | 0.0931
Gr98a (GeneID 43305) | 1 | 0.417 | 0.782 | 0.73
PGRP-LF (GeneID 39064) | 1 | 0.0255 | -0.422 | -1.48
Myo10A (GeneID 32028) | 1 | -0.284 | 0.954 | -2.56
Myo10A (GeneID 32028) | 2 | 0.774 | 0.486 | 0.25
Myo10A (GeneID 32028) | 3 | 0.886 | 1.14 | 1.3
Myo10A (GeneID 32028) | 4 | -0.169 | -0.157 | -0.664
Tsp42Ec (GeneID 35612) | 1 | 1.51 | 0.585 | 1.11
Tsp42Ec (GeneID 35612) | 2 | -1.13 | 0.344 | 1.35
nyo (GeneID 43716) | 1 | 0.84 | -0.0952 | -4.18
nyo (GeneID 43716) | 2 | -2.38 | 0.783 | 2.02
whe (GeneID 33121) | 1 | 0.57 | 0.536 | 0.349
whe (GeneID 33121) | 2 | 1.39 | 0.252 | -2.39
Arl2 (GeneID 40993) | 1 | 0.501 | 0.792 | 1.2
Gs1 (GeneID 33172) | 1 | 0.944 | 0.644 | 0.924
Gs1 (GeneID 33172) | 2 | 0.88 | -0.262 | 0.703
Snx3 (GeneID 41551) | 1 | 0.384 | -1.98 | 1.28
Snx3 (GeneID 41551) | 2 | 0.46 | 0.314 | -0.078
Edem1 (GeneID 31154) | 1 | 0.3 | 0.224 | -0.0856
CG30403 (GeneID 246595) | 1 | 0.714 | 0.24 | 0.369
snRNA:U3 (retired record) (GeneID 3772609) | 1 | 0.799 | 1.3 | 0.169
CG8046 (GeneID 35936) | 1 | 0.917 | 0.985 | -0.428
Ppm1 (GeneID 38071) | 1 | 0.32 | -2.9 | -1.2
Ppm1 (GeneID 38071) | 2 | -0.787 | 0.347 | -0.0146
mRpS11 (GeneID 42061) | 1 | -0.651 | 0.422 | -8.31
CG42504 + CG31358 + CG42505 | 1 | 0.0454 | -0.34 | -0.193
dmrt99B (GeneID 43495) | 1 | 0.662 | -1.57 | 0.207
dmrt99B (GeneID 43495) | 2 | -0.0274 | -0.149 | -1.1
Oseg6 (GeneID 37245) | 1 | -0.0279 | 0.0459 | -2.49
Trc8 (GeneID 43476) | 1 | 0.417 | -1.21 | -5.44
Trc8 (GeneID 43476) | 2 | 0.508 | -0.662 | -1.29
spidey (GeneID 31703) | 1 | 0.732 | -3.65 | 1
spidey (GeneID 31703) | 2 | 0.389 | 0.881 | 0.295
Arms (GeneID 37433) | 1 | -0.0677 | -0.656 | 0.314
Arms (GeneID 37433) | 2 | -0.524 | -1.08 | -0.377
Arms (GeneID 37433) | 3 | -1.89 (active) | -2.21 | 0.348
Arms (GeneID 37433) | 4 | 1.58 | 0.652 | 1.04
Arms (GeneID 37433) | 5 | -0.17 | -0.349 | -0.592

Records listed so far whose gene name starts with T or t (4):
gene | reagent | Wolbachia per cell robust z, rep 1 | Wolbachia per cell robust z, rep 2 | Wolbachia per cell robust z, rep 3
Tsp42Ec (GeneID 35612) | 1 | 1.51 | 0.585 | 1.11
Tsp42Ec (GeneID 35612) | 2 | -1.13 | 0.344 | 1.35
Trc8 (GeneID 43476) | 1 | 0.417 | -1.21 | -5.44
Trc8 (GeneID 43476) | 2 | 0.508 | -0.662 | -1.29
